Compound potency records, mixed from different reports. Data source: NIAID ChemDB in PubChem.

Shared fields: tests in culture; organism: Herpes simplex virus 1; measure: EC50

Blank or dashed fields: not listed here. Lines come from different laboratories, so protocols vary. ECn is the concentration giving n% inhibition of infection, replication or growth.

{"SMILES": "COc1ccc2nc3cc(Cl)ccc3c(Nc3ccco3)c2c1", "cells": "VERO 76", "method": "plaque count", "result": ">7 µM"}
{"SMILES": "Nc1ccn(C[C@@H](CO)OCP(=O)(O)O)c(=O)n1", "strain or isolate": "KOS", "cells": "U138-MG", "method": "cytopathic effect", "result": "0.58 µg/mL"}
{"SMILES": "C/C=C\\C(C)=C\\[C@H](C)C(=O)C[C@H](O)CC1CC(=O)NC(=O)C1", "strain or isolate": "KOS", "cells": "HeLa", "method": "cytopathic effect", "result": "49 µM"}
{"SMILES": "COc1ccc2nc3cc(Cl)ccc3c(N[C@H]3CCCN4CCCC[C@H]34)c2c1", "cells": "VERO 76", "method": "plaque count", "result": ">60 µM"}
{"SMILES": "NNC(=O)c1ccncc1", "strain or isolate": "KOS", "cells": "HeLa", "method": "cytopathic effect", "result": ">200 µg/mL"}
{"SMILES": "COc1cc(C2c3c(cc4c(c3OC)OCO4)C[C@H]3COC(=O)[C@H]23)cc(OC)c1OC", "strain or isolate": "A4-3", "cells": "MRC-5", "result": "0.135 µg/mL"}
{"SMILES": "O=C(O)P(=O)(O)O", "strain or isolate": "KOS GCV-resistant", "cells": "HEL", "method": "cytopathic effect", "result": "51.3 µg/mL"}
{"SMILES": "O=C(O)P(=O)(O)O", "strain or isolate": "KOS", "cells": "U87MG", "method": "cytopathic effect", "result": "25.8 µg/mL"}
{"SMILES": "O=c1[nH]c(=O)n([C@H]2C[C@H](O)[C@@H](CO)O2)cc1/C=C/Br", "strain or isolate": "KOS HPMPC-resistant", "cells": "HEL", "method": "cytopathic effect", "result": "0.007 µg/mL"}
{"SMILES": "CCn1cc(C(=O)O)c(=O)c2cnc(N3CCNCC3)nc21", "strain or isolate": "KOS", "cells": "HeLa", "method": "cytopathic effect", "result": ">200 µg/mL"}
{"SMILES": "COc1cc(C2c3cc4c(cc3C[C@H]3COC(=O)[C@H]23)OCO4)cc(OC)c1OC", "strain or isolate": "KOS", "cells": "MRC-5", "result": "0.004 µg/mL"}
{"SMILES": "CN1C[C@H](C(=O)N[C@]2(C)O[C@@]3(O)[C@@H]4CCCN4C(=O)[C@H](Cc4ccccc4)N3C2=O)C=C2c3cccc4[nH]cc(c34)C[C@H]21", "strain or isolate": "KOS", "cells": "HeLa", "method": "cytopathic effect", "result": ">200 µg/mL"}
{"SMILES": "Nc1ccn(C[C@@H](CO)OCP(=O)(O)O)c(=O)n1", "strain or isolate": "KOS PMEA-resistant", "cells": "HEL", "method": "cytopathic effect", "result": "0.4 µg/mL"}
{"SMILES": "Nc1c2ccccc2nc2ccccc12", "cells": "VERO 76", "method": "plaque count", "result": ">8 µM"}
{"SMILES": "Nc1nc2c(ncn2COC(CO)CO)c(=O)[nH]1", "strain or isolate": "KOS S2242-resistant", "cells": "HEL", "method": "cytopathic effect", "result": "0.0009 µg/mL"}
{"SMILES": "Cc1ccc(C(=O)Nc2ccc(S(=O)(=O)O)c3cc(S(=O)(=O)O)cc(S(=O)(=O)O)c23)cc1NC(=O)c1cccc(NC(=O)Nc2cccc(C(=O)Nc3cc(C(=O)Nc4ccc(S(=O)(=O)O)c5cc(S(=O)(=O)O)cc(S(=O)(=O)O)c45)ccc3C)c2)c1", "strain or isolate": "KOS", "cells": "HeLa", "method": "cytopathic effect", "result": "17 µM"}
{"SMILES": "COc1ccc2nc3cc(Cl)ccc3c(NCCN3CCCC(O)C3)c2c1", "cells": "VERO 76", "method": "plaque count", "result": ">14 µM"}
{"SMILES": "COc1cc([C@@H]2c3cc(O)c(O)cc3C[C@H]3COC(=O)[C@@H]32)cc(OC)c1OC", "strain or isolate": "KOS", "cells": "MRC-5", "result": "0.248 µg/mL"}
{"SMILES": "Nc1ncnc2c1ncn2[C@@H]1O[C@H](CO[C@H]2[C@H](O)[C@H](O[C@H]3O[C@@H](CO)[C@@H](O)[C@H](O)[C@@H]3N)[C@@H](O)[C@@H](OS(=O)(=O)O)[C@@H]2OC(=O)[C@@H](N)CO)[C@@H](O)[C@H]1O", "strain or isolate": "KOS", "cells": "HeLa", "method": "cytopathic effect", "result": ">200 µg/mL"}

3 of the rows above, restated:

SMILES,strain or isolate,cells,method,result
Nc1ccn(C[C@@H](CO)OCP(=O)(O)O)c(=O)n1,KOS,U138-MG,cytopathic effect,0.58 µg/mL
Nc1c2ccccc2nc2ccccc12,,VERO 76,plaque count,>8 µM
O=c1[nH]c(=O)n([C@H]2C[C@H](O)[C@@H](CO)O2)cc1/C=C/Br,KOS HPMPC-resistant,HEL,cytopathic effect,0.007 µg/mL